The list shows a part of the results. The rule behind the calls is not given here. Only a part of the results of these assays is listed, not drawn at random.
Each compound was assayed against Thioredoxin glutathione reductase (Schistosoma mansoni) (UniProt Q962Y6) (assay: qHTS Assay for the Inhibitors of Schistosoma Mansoni Peroxiredoxins. [Related pubchem assays: 1011 (Confirmation Concentration-Response Assay for Inhibitors of the Schistosoma mansoni Redox Cascade ), 448 (Schistosoma Mansoni Peroxiredoxins (Prx2) and thioredoxin glutathione reductase (TGR) coupled assay)]).
Format: functional

| SMILES | Potency |
| --- | --- |
| CCc1nc2c([nH]1)c1no[n+]([O-])c1c1no[n+]([O-])c21 | active: 15.8 µM |

From ChEMBL document CHEMBL1201862, “PubChem BioAssay data set” (2004)
